A mixed list of measured activities; the numbers were collected in NIAID ChemDB.

Common to all: host cell toxicity; cells: MRC-5; endpoint: CC50

Blank or dashed fields: not listed here.

CCCCCCCCCCCCCCCCCCCCCCOCCCOP(=O)(O)C(=O)O ; value: 210 µM
CO/N=C/c1ccc(OCCC2CCN(c3ccc(C)nn3)CC2)cc1C ; method: neutral red ; value: >0.1 µg/mL
COc1cc(C2c3cc4c(cc3C[C@H]3COC(=O)[C@H]23)OCO4)cc(OC)c1OC ; method: MTT ; value: >10 µg/mL
CO/N=C/c1ccc(OCCC2CCN(c3ccc(Cl)nn3)CC2)c(C)c1 ; method: neutral red ; value: >0.1 µg/mL
CC#Cc1cn([C@@H]2O[C@H](COP(=O)(O)OCC)[C@@H](O)[C@@H]2O)c(=O)[nH]c1=O ; value: >250 µM
NC1=Nc2c(ncn2CCC/C=C/P(=O)(O)O)C(=O)C1 ; value: 188 µM
O=Cc1ccc(OCCC2CCN(c3ccc(Cl)nn3)CC2)cc1 ; method: visual reading ; value: 30 µg/mL
CC#Cc1cn([C@@H]2O[C@H](COP(=O)(O)OCC(F)(F)F)[C@@H](O)[C@@H]2O)c(=O)[nH]c1=O ; value: >250 µM
O=C1c2ccc(O)c(O)c2C(=O)c2c(O)ccc(O)c21 ; value: >36.7 µM
C=C(C)[C@]12C[C@@H](C)[C@@]34OC(CCCCCCCCCCC)(O[C@@H]1[C@H]3[C@@H]1O[C@]1(CO)[C@@H](O)[C@]1(O)C(=O)C(C)=C[C@H]14)O2 ; method: MTS ; value: 5.7 µM
CC(Oc1ccc2ncccc2c1)C(=O)N/N=C/c1cc(CO)c(CO)c(CO)c1 ; method: absorbance ; value: >512 µM
Cc1cc(O)c2c(c1)/C(=C1\c3cc(C)cc(O)c3C(=O)c3c(O)cc(O)cc31)c1cc(O)cc(O)c1C2=O ; value: 3.5 µM
COc1cc([C@@H]2c3cc(O)c(O)cc3C[C@H]3COC(=O)[C@@H]32)cc(OC)c1OC ; method: MTT ; value: >10 µg/mL
Cc1cn([C@H]2C[C@H](N=[N+]=[N-])[C@@H](CO)O2)c(=O)[nH]c1=O ; method: neutral red ; value: >100 µM
Cc1cc(O)c2c(c1)C(=O)c1cc(O)cc(O)c1C2=O ; value: 9.6 µM
Cc1cn([C@H]2C[C@H](O)[C@@H](CO)O2)c(=O)[nH]c1=O ; value: >826 µM
CO/N=C/c1ccc(OCCC2CCN(c3cncc(Cl)n3)CC2)cc1 ; method: neutral red ; value: >0.1 µg/mL
NC(=O)c1cc2ccncc2c2sc3ccccc3c12 ; method: visual reading ; value: 1.3 µg/mL
CC(Oc1ccc2ncccc2c1)C(=O)N/N=C/c1cccc(Br)c1 ; method: absorbance ; value: >512 µM
CC(O)/C=C/C=C/C=C\CCCCCCCc1cccc(O)c1O ; method: WST ; value: 48.7 µM
CC#Cc1cn([C@@H]2O[C@H](CO)[C@@H](O)[C@@H]2O)c(=O)[nH]c1=O ; value: >500 µM
CC(Oc1ccc2ncccc2c1)C(=O)N/N=C/c1ccccc1F ; method: absorbance ; value: >512 µM
Nc1nc(=S)n([C@H]2C[C@H](O)[C@@H](CO)O2)cc1I ; value: 272 µM
NC12CC3CC(CC(C3)C1)C2 ; value: 40–1000 µM
O=c1ccn([C@H]2C[C@H](O)[C@@H](CO)O2)c(=S)[nH]1 ; value: >412 µM
NC(=O)c1cn([C@H]2C[C@H](O)[C@@H](CO)O2)c2ncnc(N)c12 ; value: 1 µM
Cc1ccccc1/C=N/NC(=O)C(C)Oc1ccc2ncccc2c1 ; method: absorbance ; value: >512 µM
NC(=S)c1cn([C@@H]2O[C@H](CO)[C@@H](O)[C@@H]2O)c2ncnc(N)c12 ; value: 3 µM
Cc1cc(=O)c2c(O)c3c(O)cc(O)c4c5c(O)cc(O)c6c(O)c7c(=O)cc(C)cc7c(c65)c(c2c1)c34 ; value: 11.1 µM
CCCCCCCCCCCCCCCCCCOC[C@@H](O)COP(=O)(O)CC(=O)O ; value: 32–100 µM
O=C(O)c1cc(O)c2c(c1)C(=O)c1cccc(O)c1C2=O ; value: 12.9 µM
Cc1cn([C@@H]2O[C@H](CO)[C@@H](O)[C@@H]2O)c(=S)[nH]c1=O ; value: >730 µM
CC(Oc1ccc2ncccc2c1)C(=O)N/N=C/c1cccc(CO)c1 ; method: absorbance ; value: >512 µM
C=CC/C=C\C/C=C\CCCCCCCc1cccc(O)c1O ; method: WST ; value: 5.83 µM
CC#Cc1cn([C@@H]2O[C@H](COP(=O)(O)Oc3ccccc3)[C@@H](O)[C@@H]2O)c(=O)[nH]c1=O ; value: >500 µM
NC(=S)c1cn([C@H]2C[C@H](O)[C@@H](CO)O2)c2ncnc(N)c12 ; value: 14 µM
O=C(O)P(=O)(O)O ; value: >1000 µM
CC(=O)Oc1ccc(/C=C/C(=O)OC[C@@H]2O[C@H](Oc3c(-c4ccc(O)cc4)oc4cc(O)cc(O)c4c3=O)[C@@H](OC(C)=O)[C@H](OC(C)=O)[C@H]2OC(C)=O)cc1 ; value: >34 µM
CCO/N=C/c1ccc(OCCC2CCN(c3ccc(C)nn3)CC2)cc1 ; method: neutral red ; value: >0.1 µg/mL
O=c1[nH]c(=S)n([C@H]2C[C@H](O)[C@@H](CO)O2)cc1I ; value: >542 µM
N/C(=N/O)c1cn([C@H]2C[C@H](O)[C@@H](CO)O2)c2ncnc(N)c12 ; value: 20 µM
Cc1cc(O)c2c(c1)Cc1cc(O)cc(O)c1C2=O ; value: 3.5 µM
CN(O)C(=O)CCC(c1ccccc1)P(=O)(O)O ; method: fluorescence ; value: >60 µM
Nc1nc2c(ncn2COCCO)c(=O)[nH]1 ; method: MTT ; value: >350 µM
COC(=O)N[C@H](C(=O)N1CCC[C@H]1c1nc2ccc(-c3csc4c(-c5ccc(-c6cnc([C@@H]7CCCN7C(=O)[C@H](NC(=O)OC)c7ccccc7)[nH]6)cc5)csc34)cc2[nH]1)C(C)C ; method: resazurin ; value: >50 µM
COc1cc([C@@H]2c3cc4c(cc3[C@H](O)[C@H]3COC(=O)[C@H]23)OCO4)cc(OC)c1OC ; method: MTT ; value: >10 µg/mL
CC(=O)O[C@H]1CC[C@@]2(C)C(CC[C@@]3(C)C4=CC[C@@]5(C(=O)O)CCC(C)(C)CC5[C@]4(C)CCC23)C1(C)C ; method: MTS ; value: 6.7 µM
CCCCCCCCCCCCCCCCCCOC[C@@H](O)COP(=O)(O)C(=O)O ; value: ~1000 µM
CCCCCCCCCCCCCOCCCOP(=O)(O)C(=O)O ; value: 1000 µM
NC1=Nc2c(ncn2CCCCCP(=O)(O)O)C(=O)C1 ; value: >250 µM
CC#Cc1cn([C@@H]2O[C@H](COP(=O)(NCCC)Oc3ccccc3)[C@@H](O)[C@@H]2O)c(=O)[nH]c1=O ; value: 125 µM
O=C1c2cccc(O)c2C(=O)c2c(O)c(O)cc(O)c21 ; value: 21.8 µM

A second listing of 4 rows from above:

smiles,method,value
NC1=Nc2c(ncn2CCCCCP(=O)(O)O)C(=O)C1,-,>250 µM
NC(=O)c1cc2ccncc2c2sc3ccccc3c12,visual reading,1.3 µg/mL
NC(=S)c1cn([C@@H]2O[C@H](CO)[C@@H](O)[C@@H]2O)c2ncnc(N)c12,-,3 µM
CC(=O)Oc1ccc(/C=C/C(=O)OC[C@@H]2O[C@H](Oc3c(-c4ccc(O)cc4)oc4cc(O)cc(O)c4c3=O)[C@@H](OC(C)=O)[C@H](OC(C)=O)[C@H]2OC(C)=O)cc1,-,>34 µM

CCn is the concentration with n% toxicity to the cells. a–b is a range or a potency band. Conditions beyond the fields shown may differ between rows.